Here are results for one substance from US20230405106A1.

Broadly, the Kd is a measure of binding affinity in units of concentration. A low value points to a tighter complex.

For the experiment, the target named is chimeric ACE2-mFc protein (UniProt Q9BYF1).

The substance “hybrid HBcAg-CRBDH6-H nanoparticles (from UniProt P0DTC2 328-533; P03146 1-183)” gave a Kd of 29.4 pM.
